Anti-infective test results gathered from many reports (values: NIAID ChemDB through PubChem).

Common to all: growth or infection tests; species: Rhinovirus; measure: EC50

Neighbouring rows are from separate reports. ECn is the concentration giving n% inhibition of infection, replication or growth.

CSc1nsc(-c2ccc(OCCOc3ccc(C#N)cc3)cc2)c1C#N ; strain: Serotype 72 (group A) ; cell line: HELA-OHIO ; method: cytopathic effect ; result: >2 µM
Fc1cccc(Cn2cnc3c(Nc4cccc(F)c4)nc(C(F)(F)F)nc32)c1 ; strain: Serotype 53 ; cell line: M-HELA ; method: plaque count ; result: 6.6 µM
CCOC(=O)c1ccc(OCCC2CCN(c3ccc(C)nn3)CC2)cc1 ; strain: 11757 (ICAM-1 receptor group 16) ; cell line: KB ; method: neutral red ; result: 0.016 µM
CN(C)c1nc(C(F)(F)F)nc2c1ncn2Cc1ccc(Cl)c(Cl)c1 ; strain: Serotype 3 ; cell line: M-HELA ; method: plaque count ; result: >8 µM
CN(c1ccccc1)c1nc(C(F)(F)F)nc2c1ncn2Cc1ccccc1 ; strain: Serotype 1B ; cell line: M-HELA ; method: plaque count ; result: 2.3 µM
CCOC(=O)c1ccc(OCCCOc2ccc(-c3snc(SC)c3C#N)cc2)cc1 ; strain: Serotype 2 (group B) ; cell line: HELA-OHIO ; method: cytopathic effect ; result: >2 µM
CC(C)Oc1ccc(Cn2cnc3c(N(C)C)nc(C(F)(F)F)nc32)cc1 ; strain: Serotype 13 ; cell line: M-HELA ; method: plaque count ; result: >8 µM
COc1ccc(-c2snc(SC)c2C#N)cc1 ; strain: Serotype 39 (group B) ; cell line: HELA-OHIO ; method: cytopathic effect ; result: >12 µM
CSc1nsc(-c2ccc(OCCCOc3ccc(C#N)cc3)cc2)c1C#N ; strain: Serotype 14 (group A) ; cell line: HELA-OHIO ; method: cytopathic effect ; result: >2 µM
CSc1nsc(-c2ccc(OC(C)(C)C)cc2)c1C#N ; strain: Serotype 85 (group B) ; cell line: HELA-OHIO ; method: cytopathic effect ; result: 1 µM
Cc1cc(Cn2cnc3c(N(C)C)nc(C(F)(F)F)nc32)ccc1Cl ; strain: Serotype 1B ; cell line: M-HELA ; method: plaque count ; result: 0.12 µM
Cc1cc(CCCCCOc2c(Cl)cc(C3=NCCO3)cc2Cl)on1 ; strain: TYPE 6 ; cell line: HeLa ; method: plaque count ; result: 0.13 µg/mL
CSc1nsc(-c2ccc(OCCc3ccccc3)cc2)c1C#N ; strain: Serotype 89 (group B) ; cell line: HELA-OHIO ; method: cytopathic effect ; result: 0.4 µM
Cc1cc(CCCOc2c(C)cc(-c3noc(C(F)(F)F)n3)cc2C)on1 ; strain: Isolate 18 ; cell line: OHIO HELA-I ; method: cytopathic effect / visual reading ; result: 0.94 µg/mL
CN(C)c1nc(C(F)(F)F)nc2c1ncn2Cc1ccc(S(C)(=O)=O)cc1 ; strain: Serotype 2 ; cell line: M-HELA ; method: plaque count ; result: >8 µM
CSc1nsc(-c2ccc(OCCCOc3ccccc3)cc2)c1C#N ; strain: Serotype 42 (group A) ; cell line: HELA-OHIO ; method: cytopathic effect ; result: >20 µM
CSc1ccc(Cn2cnc3c(N(C)C)nc(C(F)(F)F)nc32)cc1 ; strain: Serotype 1B ; cell line: M-HELA ; method: plaque count ; result: 0.07 µM
CCOC(=O)c1ccc(OCCC2CCN(c3ccc(C)nn3)CC2)cc1 ; strain: Serotype 51 (group B) ; cell line: HELA-OHIO ; method: cytopathic effect ; result: 0.01 µM
COc1ccc(Cn2cnc3c(N(C)C)nc(C(F)(F)F)nc32)cc1C ; strain: Serotype 21 ; cell line: M-HELA ; method: plaque count ; result: >8 µM
CSc1nsc(-c2ccc(OS(=O)(=O)c3ccc(C)cc3)cc2)c1C#N ; strain: Serotype 45 (group A) ; cell line: HELA-OHIO ; method: cytopathic effect ; result: >25 µM
CCOC(=O)c1ccc(OCCCCOc2ccc(-c3snc(SC)c3C#N)cc2)cc1 ; strain: Serotype 72 (group A) ; cell line: HELA-OHIO ; method: cytopathic effect ; result: >2 µM
CN(C)c1ccc(Cn2cnc3c(N(C)C)nc(C(F)(F)F)nc32)cc1 ; strain: Serotype 15 ; cell line: M-HELA ; method: plaque count ; result: >8 µM

A second listing of 3 rows from above:

smiles	strain	cell line	method	result
CC(C)Oc1ccc(Cn2cnc3c(N(C)C)nc(C(F)(F)F)nc32)cc1	Serotype 13	M-HELA	plaque count	>8 µM
Fc1cccc(Cn2cnc3c(Nc4cccc(F)c4)nc(C(F)(F)F)nc32)c1	Serotype 53	M-HELA	plaque count	6.6 µM
CN(C)c1ccc(Cn2cnc3c(N(C)C)nc(C(F)(F)F)nc32)cc1	Serotype 15	M-HELA	plaque count	>8 µM